The target of data set [1] is DNMT5 (Cryptococcus neoformans) (UniProt J9VI03). The data set is described as follows: activity assay. Conditions: 5mC at first C of AscI site (GG[5mC]GCGCC) on top strand from primer SEQ:6; with 50 mM EDTA no activity.
For data set [2], the target named is DNMT5 C-terminal His-tagged (Cryptococcus neoformans) (UniProt J9VI03). Briefly: activity assay. Conditions: three 5mC on top strand only; bead-immobilised enzyme, anti-mC ELISA; beads alone no signal; 25 C; purified recombinant protein; label: 5'-biotin on bottom strand. For orientation: ELISA stands for enzyme-linked immunosorbent assay.

Protein sequences, listed by entry. Tags and fused reporters are not part of them. Lines headed by an entry give the natural chain unless they say otherwise; changes in a name come on top.
UniProt J9VI03: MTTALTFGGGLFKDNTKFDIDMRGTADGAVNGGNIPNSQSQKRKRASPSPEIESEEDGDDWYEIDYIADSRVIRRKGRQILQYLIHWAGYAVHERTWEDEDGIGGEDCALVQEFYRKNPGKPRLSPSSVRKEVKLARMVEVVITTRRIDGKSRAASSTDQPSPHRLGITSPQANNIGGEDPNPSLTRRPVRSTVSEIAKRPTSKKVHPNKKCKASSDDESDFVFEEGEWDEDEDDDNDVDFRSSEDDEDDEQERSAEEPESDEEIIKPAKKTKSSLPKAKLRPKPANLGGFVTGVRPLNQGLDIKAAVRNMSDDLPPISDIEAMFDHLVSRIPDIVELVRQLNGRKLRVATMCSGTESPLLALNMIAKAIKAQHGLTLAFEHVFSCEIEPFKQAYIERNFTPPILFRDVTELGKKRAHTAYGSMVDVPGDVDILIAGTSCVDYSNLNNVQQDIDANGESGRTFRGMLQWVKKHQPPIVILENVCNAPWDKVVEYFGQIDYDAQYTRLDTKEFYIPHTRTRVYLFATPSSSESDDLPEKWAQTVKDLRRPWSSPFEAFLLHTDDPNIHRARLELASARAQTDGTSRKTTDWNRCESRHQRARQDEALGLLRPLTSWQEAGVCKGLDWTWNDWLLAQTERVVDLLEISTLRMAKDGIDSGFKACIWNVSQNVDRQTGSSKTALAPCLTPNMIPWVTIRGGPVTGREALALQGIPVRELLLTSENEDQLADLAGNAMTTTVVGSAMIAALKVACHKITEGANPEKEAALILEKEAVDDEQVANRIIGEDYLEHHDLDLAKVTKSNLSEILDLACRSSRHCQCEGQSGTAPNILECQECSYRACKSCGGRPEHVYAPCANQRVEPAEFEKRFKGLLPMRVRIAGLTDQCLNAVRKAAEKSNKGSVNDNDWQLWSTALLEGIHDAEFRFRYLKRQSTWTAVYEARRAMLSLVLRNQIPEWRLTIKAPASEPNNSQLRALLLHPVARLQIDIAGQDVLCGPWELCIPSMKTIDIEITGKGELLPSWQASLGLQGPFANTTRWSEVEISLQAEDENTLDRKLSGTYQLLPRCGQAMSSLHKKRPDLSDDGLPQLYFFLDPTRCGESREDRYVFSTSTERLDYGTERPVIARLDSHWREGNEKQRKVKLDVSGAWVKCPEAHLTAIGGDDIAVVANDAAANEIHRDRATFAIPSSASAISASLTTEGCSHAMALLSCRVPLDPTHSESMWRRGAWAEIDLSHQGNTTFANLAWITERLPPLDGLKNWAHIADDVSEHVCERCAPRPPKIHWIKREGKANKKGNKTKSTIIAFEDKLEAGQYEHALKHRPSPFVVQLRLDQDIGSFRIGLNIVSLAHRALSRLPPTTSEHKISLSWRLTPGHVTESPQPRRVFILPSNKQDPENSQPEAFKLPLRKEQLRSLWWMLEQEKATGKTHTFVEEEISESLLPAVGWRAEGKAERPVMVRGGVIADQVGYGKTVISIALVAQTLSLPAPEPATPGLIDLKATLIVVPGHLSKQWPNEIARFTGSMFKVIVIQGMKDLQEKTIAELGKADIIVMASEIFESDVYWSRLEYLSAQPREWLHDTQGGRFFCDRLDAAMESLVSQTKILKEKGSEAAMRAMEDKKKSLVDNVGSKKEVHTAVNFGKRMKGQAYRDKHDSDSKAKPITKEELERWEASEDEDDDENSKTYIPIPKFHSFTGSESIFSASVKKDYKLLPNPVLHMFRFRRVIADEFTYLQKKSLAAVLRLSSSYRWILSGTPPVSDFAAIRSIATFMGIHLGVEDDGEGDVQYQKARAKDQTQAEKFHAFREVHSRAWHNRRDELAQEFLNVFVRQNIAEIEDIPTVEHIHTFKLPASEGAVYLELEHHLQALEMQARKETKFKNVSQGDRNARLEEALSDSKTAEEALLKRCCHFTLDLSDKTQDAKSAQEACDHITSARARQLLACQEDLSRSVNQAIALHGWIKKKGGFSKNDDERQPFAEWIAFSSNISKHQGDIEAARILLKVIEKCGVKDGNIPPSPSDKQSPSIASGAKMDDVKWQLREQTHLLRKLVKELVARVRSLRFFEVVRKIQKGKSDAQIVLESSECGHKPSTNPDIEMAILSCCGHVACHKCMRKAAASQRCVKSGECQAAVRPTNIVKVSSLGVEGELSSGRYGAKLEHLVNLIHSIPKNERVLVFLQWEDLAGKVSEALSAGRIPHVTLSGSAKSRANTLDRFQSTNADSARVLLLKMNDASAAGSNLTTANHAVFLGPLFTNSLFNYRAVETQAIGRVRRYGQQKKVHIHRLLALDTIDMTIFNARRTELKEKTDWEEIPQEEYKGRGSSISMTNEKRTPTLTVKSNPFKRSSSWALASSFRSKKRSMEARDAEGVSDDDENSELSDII

For some assays here: Negatives hold for the conditions tested.

For the sequence “CCGGTAGGGGCCCATTATAGCCGAATTCGGCGCGCCAGGTGGCACTTTTCGGGGAAATGTGCGCGGAACCCCTATTTGTTTATTTTTCTAAATACATTCAAATATGTATCCGCTCATGAGACAATAACCCTGATAAATGC (double strand) [hemimethylated AscI substrate 195 bp]”, in data set [1], the “activity on this sequence” value is reported as “not active”.

Take “GGGCGGCGACCTCGCGGGTTTTCGCTATTTATGAAAATCGTTTCCGGTTTAAGGCGTTTGTCATAACTTAATGTTTTTCCGTTCTTCTTCGTCGACGGGCTCCC (double strand) [hemimethylated DNA sequence 2]”: the “activity on this sequence” value in data set [2] is “active”.

For the origin of these results see US20260015677.
